Pooled drug test results. Numbers come from NIAID ChemDB, via PubChem.

Common to all: tests in culture; organism: HIV-1; read-out: EC50

Neighbouring rows are from separate reports. Blank or dashed fields: not listed here. ECn: concentration that inhibits the pathogen or its effect by n%.

Cc1cn([C@H]2C[C@H](N=[N+]=[N-])[C@@H](CO)O2)c(=O)[nH]c1=O ; strain: Recombinant ; mutations: RT-M41L S68N G112S M184V ; cells: HeLa ; read by: luciferase ; value: 0.00608 µM
CCn1nc(Cc2ccc(OC(F)(F)F)cc2)cc1C1CCN(C[C@H]2CN([C@@H](C(=O)O)C(C)C)C[C@@H]2c2cccc(F)c2)CC1 ; strain: BaL ; cells: HeLa ; read by: β-galactosidase ; conditions: 50% human serum ; value: <0.3 µM
Cc1ccnc2c1NC(=O)c1cccnc1N2C1CC1 ; strain: NL4-3 WT ; cells: MAGI (CCR5) + MAGI ; read by: β-galactosidase ; value: 0.061 µM
Cc1ccnc2c1NC(=O)c1cccnc1N2C1CC1 ; strain: HXB2 ; mutations: RT-L74V ; cells: HT4 + HT4 LacZ-1 ; read by: plaque count ; value: 0.05 µM
S=C(NCCc1cccs1)Nc1ccc(Br)cn1 ; strain: G890-1 Clinical isolate NRTI-resistant ; mutations: RT-K20R M41L D67N T69N K70R L210W T215Y ; cells: HT4 + HeLa ; read by: plaque count ; value: 0.01 µM
Nc1ccn([C@H]2C=C[C@@H](CO)O2)c(=O)n1 ; strain: HXB2 FTC-P5 (RT V75T) ; mutations: RT-V75T ; cells: CD4+HELA + HeLa ; read by: plaque count ; value: 1.5 µM
Cn1c2ccccc2c2c1cc(C#N)c(=O)n2-c1ccc([N+](=O)[O-])cc1 ; strain: NRTI resistant ; mutations: RT-M41L D67N M184V L210W T215Y ; cells: HeLa ; read by: luciferase ; value: 0.155 µM
O=c1[nH]cnc2c1ncn2[C@H]1CC[C@@H](CO)O1 ; strain: U455 ; cells: U-937 ; read by: syncytia ; value: 11.6 µM
Cc1cn([C@H]2C=C[C@@H](CO)O2)c(=O)[nH]c1=O ; strain: Recombinant ; mutations: RT-M41L A62V S68N G112S V118I M184V ; cells: HeLa ; read by: luciferase ; value: 0.49 µM
CC(=O)N1CCC(C(=O)N(CCCN2CCC(Cc3ccc(C(N)=O)cc3)CC2)c2ccc(C)c(Cl)c2)CC1 ; strain: R5 subtype B_5 recombinant ; cells: U87 (CD4+ CCR5+) + U87 ; read by: luciferase ; value: 0.012 µM
Nc1nc(=O)n([C@@H]2CS[C@H](CO)O2)cc1F ; strain: NL4-3 ; mutations: A114S/M184V ; cells: TZM-gfp ; read by: GFP ; value: >100 µM
O=C1O[C@H]2[C@@H]3OC(=O)c4cc(O)c(O)c(O)c4-c4c(cc(O)c(O)c4O)C(=O)OC[C@H]2O[C@@H](OC(=O)c2cc(O)c(O)c(O)c2)[C@@H]3OC(=O)c2cc(O)c(O)c3c2[C@@H]2C1=CC(=O)[C@](O)(O3)C2(O)O ; strain: NRTI resistant (RT M41I L74V V106A T215V) ARP146 ; mutations: RT-M41I L74V V106A T215V ; cells: MAGI ; value: 0.71 µg/mL
CCc1c(CC2CCCCC2)nc(SCC(=O)c2ccccc2)[nH]c1=O ; strain: IIIB ; mutations: DB-02 ; cells: C8166 ; read by: p24 / ELISA ; value: 274 µM
Nc1nc(=O)n([C@@H]2CS[C@H](CO)O2)cc1F ; strain: RTMC(181 184) (RT D67N K70R Y181C M184V T215F K219Q) ; mutations: RT-D67N K70R Y181C M184V T215F K219Q ; cells: HT4 + HT4 LacZ-1 ; read by: plaque count ; value: >500 µM
CC[C@H](C)[C@H](C(=O)O)N1C[C@H](CN2CCC(c3cc(Cc4ccc(Oc5ccccc5)cc4)nn3CC)CC2)[C@@H](c2cccc(F)c2)C1 ; strain: BaL ; cells: HeLa ; read by: β-galactosidase ; value: <0.0012 µM
Nc1ccn([C@H]2CC[C@@H](CO)O2)c(=O)n1 ; strain: RTMN(181 184) (RT M41L Y181C M184V T215Y) ; mutations: RT-M41L Y181C M184V T215Y ; cells: HT4 + HT4 LacZ-1 ; read by: plaque count ; value: 0.94 µM
CCn1nc(Cc2ccc(OC3CC3)cc2)cc1C1CCN(C[C@H]2CN([C@@H](C(=O)O)C(C)C)C[C@@H]2c2cccc(F)c2)CC1 ; strain: BaL ; cells: HeLa ; read by: β-galactosidase ; value: <0.0012 µM
Cc1ccnc2c1NC(=O)c1cccnc1N2C1CC1 ; strain: NRTI resistant (RT A62V V75I F77L Q151M) MDR151 ; mutations: RT-A62V V75I F77L Q151M ; cells: MAGI ; read by: β-galactosidase ; value: 0.16 µM
Cc1cn([C@H]2C=C[C@@H](CO)O2)c(=O)[nH]c1=O ; strain: HXB2 ; mutations: RT-L74V ; cells: CD4+HELA + HeLa ; read by: plaque count ; value: 0.75 ± 0.2 µM
CC[C@H](C)[C@H](C(=O)O)N1C[C@H](CN2CCC(c3cc(Cc4ccc(OCc5ccccc5)cc4)nn3CC)CC2)[C@@H](c2cccc(F)c2)C1 ; strain: BaL ; cells: HeLa ; read by: β-galactosidase ; conditions: 50% human serum ; value: <0.3 µM
C#C[C@@]1(CO)C=C[C@H](n2cc(C)c(=O)[nH]c2=O)O1 ; strain: NL4-3 ; mutations: RT-K103N ; cells: MAGI (CCR5) + MAGI ; read by: β-galactosidase ; value: 0.16 µM
CCn1nc(Cc2ccc(S(=O)(=O)c3ccccc3)cc2)cc1C1CCN(C[C@H]2CN([C@@H](C(=O)O)C3CCCCC3)C[C@@H]2c2cccc(F)c2)CC1 ; strain: BaL ; cells: HeLa ; read by: β-galactosidase ; value: <0.0004 µM
Cc1ccnc2c1NC(=O)c1cccnc1N2C1CC1 ; mutations: K103N ; read by: RT activity / fluorescence ; value: >67.5 µM
C#C[C@]1(CO)O[C@@H](n2cnc3c(N)nc(F)nc32)C[C@@H]1O ; strain: Clinical isolate ; mutations: M41L/A114S/M184V/A400T ; cells: MT4-GFP ; read by: fluorescence ; value: 0.06234 µM
Cc1ccnc2c1NC(=O)c1cccnc1N2C1CC1 ; strain: CLADE D ; cells: PBMC ; read by: cytopathic effect / XTT ; conditions: clinical isolate ; value: 0.1 µM
CC[C@H](C)[C@H](C(=O)O)N1C[C@H](CN2CCC(c3cc(Cc4cc(C(F)(F)F)cc(C(F)(F)F)c4)nn3CC)CC2)[C@@H](c2cccc(F)c2)C1 ; strain: BaL ; cells: HeLa ; read by: β-galactosidase ; value: <0.011 µM
Cc1cn([C@H]2C[C@H](N=[N+]=[N-])[C@@H](CO)O2)c(=O)[nH]c1=O ; strain: clinical isolate A012D (RT D67N K70R T215F K219Q) ; mutations: RT-D67N K70R T215F K219Q ; cells: HT4 + HT4-6C ; read by: plaque count ; value: 2 µM

For reference, 3 entries again:

| structure | strain | mutations | cells | read by | conditions | value |
|---|---|---|---|---|---|---|
| O=c1[nH]cnc2c1ncn2[C@H]1CC[C@@H](CO)O1 | U455 | - | U-937 | syncytia | - | 11.6 µM |
| Nc1nc(=O)n([C@@H]2CS[C@H](CO)O2)cc1F | NL4-3 | A114S/M184V | TZM-gfp | GFP | - | >100 µM |
| CC[C@H](C)[C@H](C(=O)O)N1C[C@H](CN2CCC(c3cc(Cc4ccc(Oc5ccccc5)cc4)nn3CC)CC2)[C@@H](c2cccc(F)c2)C1 | BaL | - | HeLa | β-galactosidase | - | <0.0012 µM |